# Test results published in PubChem BioAssay AID540256 (National Center for Advancing Translational Sciences (NCATS), 2011).
# This is a selection; strong and weak results do not stand in their true shares. Results filed as inconclusive are left out. Calls of active or inactive are those of the source. Calls follow the shape of the full dose curve; tested in HEK293 cells.
# Test: qHTS for Inhibitors of binding or entry into cells for Lassa Virus; also: nearly all actives have a fitted effect of over 50% in size
# Conditions: Lassa virus pseudotype entry inhibition, cell reporter; at 37.9 µM (top of the series) unless noted
# % is scaled to controls: 0 for no effect and ±100 for the full control effect.
row,SMILES,"activity change, negative = inhibition"
1,Cc1cc(SC(NC(=O)c2ccccc2)C(Cl)(Cl)Cl)nc(C(C)C)n1 (stereo not given),inactive: -22.4%
2,CCC(C)N(CC(C)C)C(=S)SC(NC(C)=O)C(Cl)(Cl)Cl (stereo not given),inactive: -4.66%
3,CCOC(=O)c1ccc(NC(=O)C(C)(CCl)SC)cc1 (stereo not given),inactive: 12.6%
4,O=C(COc1ccccc1)OC1CN2CCC1CC2 (stereo not given),inactive: 18%
5,COP1(=S)c2c(C)nn(CCC#N)c2N=C(c2ccc(F)cc2)N1C (stereo not given),inactive: 9.1%
6,COc1ccc(N/C(=N/P(=O)(N2CCOCC2)N2CCOCC2)N2CCOCC2)cc1,inactive: 8.72%
7,O=[N+]([O-])c1cc(Oc2ccc([N+](=O)[O-])cc2C(F)(F)F)cc([N+](=O)[O-])c1,inactive: -14.1%
8,COc1cc(I)ccc1[As](=O)(O)O,inactive: 0.0747%
9,COc1ccc2nc(NP(=O)(c3ccccc3)c3ccccc3)sc2c1,inactive: 10.9% [at 46.1 µM]
10,O=P1(N(CCCl)CCCl)OCCCN1CCCl (stereo not given),inactive: 4.74%
11,Cc1cc(=O)[nH]c(N[N+](=O)[O-])n1,inactive: -3.67% [at 46.1 µM]
12,O=C(OC1CN2CCC1CC2)C12CC3CC(CC(C3)C1)C2 (stereo not given),inactive: 4.71%
13,CCN(CC)C(=S)SC(NC=O)C(Cl)(Cl)Cl (stereo not given),inactive: -20.3%
14,O=C(OC1CN2CCC1CC2)c1cccc2[nH]cnc12 (stereo not given),inactive: -2.3%
15,CC(C)NC(=O)NP(=O)(Oc1ccccc1)Oc1ccccc1,inactive: 1.26%
16,COC(=O)C1(C)COP(=O)(N2CCCCCC2)OC1 (stereo not given),inactive: -2.2% [at 46.1 µM]
17,ClCCSc1nnc(-c2cccnc2)o1,inactive: 1.89%
18,Cc1ccc2nc3c(c(C)c2c1)CC(C(Cl)Cl)S3 (stereo not given),inactive: 12.4%
19,O=[N+]([O-])c1ccc(-c2cc([N+](=O)[O-])c(O)c([N+](=O)[O-])c2)cc1,inactive: 18.2%
20,O=[N+]([O-])c1ccc2c(c1)nnn2O,inactive: 10.2%
21,CCOP1(=S)c2c(C)nn(CCC#N)c2N=C(c2ccc(F)cc2)N1C (stereo not given),inactive: 9.45%
22,CN(C(=O)Cc1ccccc1)[C@@H]1CC[C@]2(CCCO2)C[C@H]1N1CCCC1,inactive: -34.4%
23,O=C(O)COc1ccc([As](=O)(O)O)cc1[N+](=O)[O-],inactive: -5.19% [at 46.1 µM]

row,SMILES,"activity change, negative = inhibition"
1,Nc1ccccc1[As](=O)(O)c1ccccc1,inactive: -13.9%
2,O=P(Nc1nccs1)(c1ccccc1)c1nc2ccccc2s1 (stereo not given),inactive: -27.9%
3,CCOP1(=S)c2c(C)nn(CCC#N)c2N=C(c2ccccc2F)N1C (stereo not given),inactive: 11.8%
4,CCOP(=O)(Nc1cccc2ccccc12)OCC,inactive: 7.22% [at 46.1 µM]
5,Cc1ccc(NCCc2c([N+](=O)[O-])cc([N+](=O)[O-])cc2[N+](=O)[O-])cc1,inactive: -4.27%
6,Cc1cccc(OCC(=O)OC2CN3CCC2CC3)c1 (stereo not given),inactive: 4.95%
7,COc1cc(C(=O)NCC2(N3CCOCC3)CCCCC2)cc(Cl)c1OC(C)C,inactive: -10.3%
8,O=C(OC1CN2CCC1CC2)c1ccc(Cl)cc1 (stereo not given),inactive: 15.9% [at 46.1 µM]
9,CC1(CBr)Cn2c(nc3ccccc3c2=O)S1 (stereo not given),inactive: -10.7%
10,CC(C)/C=N\N=C(\N)N[N+](=O)[O-],inactive: 8.42%
11,COc1ccccc1CNC(=O)COC(=O)C(O)(c1ccccc1)c1ccccc1,inactive: -4.73%
12,Clc1n[nH]nc1-c1nn[nH][15n]1,inactive: 2.2%
13,CN(CCCl)Cc1cc(Cl)c(NC2=NCCN2)c(Cl)c1,inactive: -10.6%
14,O=P1(Nc2ccccn2)COc2ccccc2OC1,inactive: 11.5%
15,O=P1(Nc2ccc(Br)cn2)COc2ccccc2OC1,inactive: 10.7%
16,Cc1ccc(OCC(=O)OC2CN3CCC2CC3)cc1 (stereo not given),inactive: -4.85%
17,O=P1(Nc2ncccn2)COc2ccccc2OC1,inactive: -6.37%
18,CCCC1OP(=O)(Nc2ccccc2)OCC1CC (stereo not given),inactive: -12.5% [at 46.1 µM]
19,O=C(/C=C/c1ccccc1)OC1CN2CCC1CC2 (stereo not given),inactive: 1.45%
20,CN(C)C1(CNC(=O)c2ccc(S(C)(=O)=O)cc2)CCCCC1,inactive: -20.9%
21,COc1cc(C2NCCC3(OCCO3)C2(C)C)cc(OC)c1OC.O=[N+]([O-])c1cc([N+](=O)[O-])c(O)c([N+](=O)[O-])c1 (stereo not given),inactive: 11.3%
22,Cc1nn(-c2ccccc2)c2c1P(=O)(N1CCOCC1)N(C)C(c1ccccc1)=N2 (stereo not given),inactive: 3.4%
